One compound from paper PMC11281601 (Viruses, 2024) can be followed below.

The target in this assay is A(H1N1)pdm09-NA 247N (Influenza A virus, UniProt C3W5S3, S247N). It is filed as biochemical.

`CC(=O)N[C@H]1[C@H]([C@H](O)[C@H](O)CO)OC(C(=O)O)=C[C@@H]1N=C(N)N` [Zanamivir, zanamivir]: the “increase of the inhibitor's IC50 in comparison to wild-type NA-S247” value is listed as “up to five-fold increase”.
